How the values were obtained:
[1] = test system: vancomycin-resistant enterococci (VRE); test: Agar diffusion, zones of inhibition; type: cell-based; settings: VRE (10 isolates); discs Bi(No3)3 157 μg, BAL 186 μg, BisBAL 157/31 μg; 24 h, 37° C.
Helicobacter pylori = test: Agar diffusion in a microaerophilic atmosphere, ten clinical isolates; type: cell-based; settings: H. pylori, Bi^3+ 157 μg, BAL 186 μg, BisBAL 157/31 μg
[2] = test system: methicillin-resistant S. aureus (MRSA); test: Agar diffusion, zones of inhibition; type: cell-based, Staphylococcus aureus; settings: MRSA (27 isolates); discs Bi(No3)3 157 μg, BAL 186 μg, BisBAL 157/31 μg; 24 h, 37° C.

## OCC(S)CS (stereo not drawn)
[1]
  Zones of Inhibition: ≦6.0 mm
Helicobacter pylori
  Zone diameter of inhibition: little or no zones of inhibition
[2]
  Zones of Inhibition: ≦6.0 mm
